Assays:
[1] = test system: NA (neuraminidase) of A/American_Crow/PEI/FAV-0035-6/2023 (H5N5)
[2] = test system: NA (neuraminidase) of A/Raccoon/PEI/FAV-0193-1/2023 (H5N5)

CCC(CC)[C@H](NC(C)=O)[C@@H]1[C@H](O)[C@@H](C(=O)O)C[C@H]1N=C(N)N
IC50 [1]: 0.08 nM | IC50 [2]: 0.08 nM
